Taken from: PubChem BioAssay AID504761 (Drosophila RNAi Screening Center, 2011)
The screen tested about 22,000 reagents; below is a random part of those with a known target gene and a result. Over the whole deposit, 116 (0.52%) are marked active. 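Calls depend on retest data that are not deposited; infection was ranked per plate without normalising between plates; the unit of the infection score is not given.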 The raw values are shown without normalisation. Further read-outs or replicates are left out here. Reagent sequences are not shown. Not given: the amount of reagent, the time to read-out.

Purpose: 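Fly genes whose silencing reduces dengue virus type 2 infection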 (primary screen)
Cell system: D.Mel-2 cells from Drosophila
Reagents: long dsRNA against Drosophila genes
Challenge: infection with dengue virus type 2; dose and infection time not stated
Detection: 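Per well on two replicate plates, imaging gave the percent of cells positive for viral envelope protein, ranked by infection, and a nuclear count of cells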
Reading the numbers: infection score: higher = more virus-infected cells; cell count: higher = more cells in the well
Rule for the call: 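Very low infection ranking in both replicate wells (chance probability at most 0.065), then a retest showing infection dropped 1.5-fold or more at p below 0.05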
Meaning of the calls: active = confirmed: knock-down lowers infection; inactive = not picked or not confirmed

The opening 2 entries, to show the layout:
ihog (GeneID 33972) [DRSC03157]
- infection score, replicate 1: 4.18
- cell count, replicate 1: 5980
- call: inactive

ihog (GeneID 33972) [DRSC29581]
- cell count, replicate 1: 393
- call: inactive

The list itself, repeating the preview:
ihog (GeneID 33972) [DRSC03157]
- infection score, replicate 1: 4.18
- cell count, replicate 1: 5980
- call: inactive

ihog (GeneID 33972) [DRSC29581]
- cell count, replicate 1: 393
- call: inactive

CG3640 (GeneID 37942) [DRSC04399]
- infection score, replicate 1: 19.6
- cell count, replicate 1: 5555
- call: inactive

CG13295 (GeneID 38692) [DRSC09969]
- infection score, replicate 1: 3.33
- cell count, replicate 1: 6161
- call: inactive

Der-2 (GeneID 42005) [DRSC15021]
- infection score, replicate 1: 3.12
- cell count, replicate 1: 6087
- call: inactive

Muc26B (GeneID 50424) [DRSC02322]
- infection score, replicate 1: 3.77
- cell count, replicate 1: 6157
- call: inactive

Muc26B (GeneID 50424) [DRSC28140]
- infection score, replicate 1: 5.15
- cell count, replicate 1: 6583
- call: inactive

CG13040 (GeneID 39804) [DRSC09921]
- infection score, replicate 1: 2.69
- cell count, replicate 1: 5873
- call: inactive

CG13040 (GeneID 39804) [DRSC28429]
- infection score, replicate 1: 16.9
- cell count, replicate 1: 4208
- call: inactive

CG15023 (GeneID 38550) [DRSC08477]
- infection score, replicate 1: 3.81
- cell count, replicate 1: 6064
- call: inactive

CG15023 (GeneID 38550) [DRSC25462]
- infection score, replicate 1: 1.71
- cell count, replicate 1: 5679
- call: inactive

CG9813 (GeneID 41644) [DRSC16569]
- infection score, replicate 1: 9.47
- cell count, replicate 1: 5842
- call: inactive

CG9813 (GeneID 41644) [DRSC26207]
- infection score, replicate 1: 11.1
- cell count, replicate 1: 5902
- call: inactive

boca (GeneID 48986) [DRSC06408]
- infection score, replicate 1: 13.5
- cell count, replicate 1: 2655
- call: inactive

Nt5a (GeneID 38148) [DRSC08561]
- infection score, replicate 1: 6.06
- cell count, replicate 1: 6405
- call: inactive

CG44838 (GeneID 39099) [DRSC10371]
- infection score, replicate 1: 11.7
- cell count, replicate 1: 6202
- call: inactive

CG44838 (GeneID 39099) [DRSC28801]
- infection score, replicate 1: 16.5
- cell count, replicate 1: 5595
- call: inactive

CG44153 (GeneID 34341) [DRSC02228]
- infection score, replicate 1: 11.6
- cell count, replicate 1: 6908
- call: inactive

CG44153 (GeneID 34341) [DRSC02229]
- infection score, replicate 1: 1.06
- cell count, replicate 1: 6409
- call: inactive

CG44153 (GeneID 34341) [DRSC02902]
- infection score, replicate 1: 4.14
- cell count, replicate 1: 6715
- call: inactive

CG44153 (GeneID 34341) [DRSC02903]
- infection score, replicate 1: 4.49
- cell count, replicate 1: 6413
- call: inactive
